Pooled drug test results. Numbers come from NIAID ChemDB, via PubChem.

Shared fields: tests in culture; organism: Rhinovirus

ECn is the concentration giving n% inhibition of infection, replication or growth. Percent inhibition refers to the dose given; in toxicity tests it is the harm to the cells. An empty or dashed field is not shown. Two numbers with a dash give a range or band. Neighbouring rows are from separate reports. A number after MIC or MFC names an inhibition level or a share of isolates.

smiles | strain | cell line | dose | read by | measure | value
Cc1ccc(Cn2cnc3c(N(C)C)nc(C(F)(F)F)nc32)cc1C | Serotype 21 | M-HELA | 8 µM | plaque count | inhibition | 16%
Cc1cc(CCCCCOc2cc(Cl)c(-c3nnco3)c(Cl)c2)on1 | Serotype 41 | - | - | - | MIC80 | 2.76 µg/mL
Cc1cc(CCCCCOc2c(Cl)cc(C3=NCCO3)cc2Cl)on1 | TYPE 89 | HeLa | - | plaque count | EC50 | 0.015 µg/mL
COCc1ccc(CCCOc2c(C)cc(-c3noc(C(F)F)n3)cc2C)nn1 | serotypes 3 4 5 9 16 18 38 66 75 67 | HeLa | - | cytopathic effect | EC80 | 0.067 µg/mL
Cc1cc(CCCOc2c(C)cc(-c3noc(C(F)(F)F)n3)cc2C)on1 | Isolate 44 | OHIO HELA-I | - | cytopathic effect / visual reading | EC50 | 0.05 µg/mL
NCS(=O)(=O)O | - | Human embryonic lung cells | 5 µg/mL | cytopathic effect | inhibition | 5%
Nc1nc2c(ccn2[C@@H]2C[C@H](CO)[C@H](O)[C@@H]2O)c(=O)[nH]1 | TYPE 1B | - | - | - | MIC | >100 µg/mL
CN(C)c1nc(C(F)(F)F)nc2c1ncn2Cc1ccc(C(F)(F)F)cc1 | Serotype 3 | M-HELA | - | plaque count | EC50 | >8 µM
Cc1cc(CCCCCOc2ccc(C3=NCCO3)c(Cl)c2)on1 | TYPE 2 | - | - | - | MIC | 0.9 µM
N#CCNC(=O)C1CCC(=O)N1 | Serotype 2 | - | - | - | MIC | >100 µg/mL
Cc1cc(CCCCCOc2cc(Cl)c(-c3nnc(C)o3)c(Cl)c2)on1 | Serotype 67 | - | - | - | MIC80 | 0.1 µg/mL
O=C(CCCCOc1ccc(C2=NCCO2)cc1)c1ccc(Cl)cc1 | serotype 1A 1B 2 6 14 15 21 22 25 29 30 41 42 45 59 63 67 70 72 86 89 | - | - | - | MIC80 | >280 µM
CCSc1ncnc2c1ncn2[C@@H]1OC2COP(=O)(O)OC2[C@H]1O | TYPE 8 | - | - | - | MIC | 3.2 µg/mL
CN(C)c1nc(C(F)(F)F)nc2c1ncn2Cc1ccc(Cl)cc1Cl | Serotype 4 | M-HELA | - | plaque count | EC50 | >8 µM
N=C(N)CCNC(=O)C1CCCC(N)=N1 | Serotype 2 | - | - | - | MIC | 100 µg/mL
CCO/N=C/c1ccc(OCCC2CCN(c3ccc(Cl)nn3)CC2)cc1 | JM1 (ICAM-1 receptor group 91) | KB | - | neutral red | EC50 | 0.258 µM
CN(C)c1nc(C(F)(F)F)nc2c1ncn2Cc1cccc(F)c1 | Serotype 19 | M-HELA | 8 µM | plaque count | inhibition | 28%
Cc1cc(OCCCc2ccc(=O)[nH]n2)cc(C)c1-c1noc(C(F)F)n1 | serotypes 3 4 5 9 16 18 38 66 75 67 | HeLa | - | cytopathic effect | EC80 | 2.16 µg/mL
N#Cc1ccc(Cn2cnc3c(Nc4cccc(F)c4)nc(C(F)(F)F)nc32)cc1 | Serotype 2 | M-HELA | - | plaque count | EC50 | 68 µM
Cc1cc(OCCCc2ccc(CO)nn2)cc(C)c1-c1noc(C(F)F)n1 | serotypes 3 4 5 9 16 18 38 66 75 67 | HeLa | - | cytopathic effect | EC80 | 1.39 µg/mL
Cc1ccccc1Cn1cnc2c(N(C)C)nc(C(F)(F)F)nc21 | Serotype 4 | M-HELA | 8 µM | plaque count | inhibition | 22%
O=C(CCCCOc1c(Cl)cc(C2=NCCO2)cc1Cl)c1ccc(Cl)cc1 | serotype 1A 1B 2 6 14 15 21 22 25 29 30 41 42 45 59 63 67 70 72 86 89 | - | - | - | MIC80 | >35 µM
O=S(=O)(O)c1ccc2cc(O)c(S(=O)(=O)O)cc2c1 | - | Human amnion AV3 cells | 50 µg/mL | cytopathic effect | inhibition | 0%
CC(CC#N)NC(=O)C1CCC(N)=N1 | Serotype 2 | - | - | - | MIC | 200 µg/mL
COCc1ccc(CCCOc2cc(C)c(-c3noc(C)n3)c(C)c2)nn1 | serotypes 3 4 5 9 16 18 38 66 75 67 | HeLa | - | cytopathic effect | EC80 | 0.44 µg/mL
CCOC(=O)c1ccc(OCCCCC(=O)c2ccccc2)cc1 | serotype 1A 1B 2 6 14 15 21 22 25 29 30 41 42 45 59 63 67 70 72 86 89 | - | - | - | MIC80 | >306 µM
CCCc1ccc(CCCOc2cc(C)c(-c3noc(C4CC4)n3)c(C)c2)nn1 | serotypes 3 4 5 9 16 18 38 66 75 67 | HeLa | - | cytopathic effect | EC80 | 0.19 µg/mL
O=C(Nc1cc(S(=O)(=O)O)cc2cc(S(=O)(=O)O)cc(O)c12)c1ccccc1 | - | Human embryonic lung cells | 50 µg/mL | cytopathic effect | inhibition | 26%
Cc1cc(OCCCc2ccc(C=O)nn2)cc(C)c1-c1noc(C(F)F)n1 | serotypes 3 4 5 9 16 18 38 66 75 67 | HeLa | - | cytopathic effect | EC80 | 0.33 µg/mL
CN(C)c1nc(C(F)(F)F)nc2c1ncn2Cc1ccc(S(C)(=O)=O)cc1 | Serotype 8 | M-HELA | - | plaque count | EC50 | >8 µM
Fc1cccc(Cn2cnc3c(Nc4cccc(F)c4)nc(C(F)(F)F)nc32)c1 | Serotype 10 | M-HELA | - | plaque count | EC50 | 3.3 µM
Cc1cc(Cn2cnc3c(N(C)C)nc(C(F)(F)F)nc32)ccc1Cl | Serotype 18 | M-HELA | 8 µM | plaque count | inhibition | 28%
CC1CC(N)=NC1C(=O)NCCC#N | Serotype 2 | - | - | - | MIC | 100 µg/mL
CCOC(=O)c1ccc(OCCCCC(=O)c2ccc(C)cc2)cc1 | serotype 1A 1B 2 6 14 15 21 22 25 29 30 41 42 45 59 63 67 70 72 86 89 | - | - | - | MIC80 | >293 µM
Nc1ccccc1S(=O)(=O)O | - | Human embryonic lung cells | 5 µg/mL | cytopathic effect | inhibition | 10%
Cc1ccc(CCCOc2cc(C)c(-c3noc(C(F)(F)F)n3)c(C)c2)nn1 | serotypes 3 4 5 9 16 18 38 66 75 67 | HeLa | - | cytopathic effect | EC80 | 0.117 µg/mL
Cc1cc(CCCCCCCOc2ccc(C3=NCCO3)cc2)on1 | TYPE 14 | - | - | - | MIC | 0.4 µM
CCCc1nc(-c2c(C)cc(OCCCc3ccc(CO)nn3)cc2C)no1 | serotypes 3 4 5 9 16 18 38 66 75 67 | HeLa | - | cytopathic effect | EC80 | 0.44 µg/mL
O=P1(O)OCC2O[C@@H](n3cnc4c(SCc5ccccc5)ncnc43)[C@H](O)C2O1 | TYPE 13 | - | - | - | MIC | 3.2–32 µg/mL
CCN=C1CCC(C(=O)NCCC(=N)N)N1 | Serotype 2 | - | - | - | MIC | >100 µg/mL

3 of the rows above, restated:

| smiles | strain | cell line | dose | read by | measure | value |
|---|---|---|---|---|---|---|
| Cc1ccc(CCCOc2cc(C)c(-c3noc(C(F)(F)F)n3)c(C)c2)nn1 | serotypes 3 4 5 9 16 18 38 66 75 67 | HeLa | - | cytopathic effect | EC80 | 0.117 µg/mL |
| Cc1cc(CCCCCOc2c(Cl)cc(C3=NCCO3)cc2Cl)on1 | TYPE 89 | HeLa | - | plaque count | EC50 | 0.015 µg/mL |
| CN(C)c1nc(C(F)(F)F)nc2c1ncn2Cc1ccc(C(F)(F)F)cc1 | Serotype 3 | M-HELA | - | plaque count | EC50 | >8 µM |